Series [1] deals with HIV-1RF. Kind of series: Post-exposure assay: compounds added after HIV-1 infection of CEM-SS cells, cell viability. The series is classed as cell-based.
In series [2] the test system is HIV-1RF. The experiment in a line: p24 levels after single high MOI HIV-1RF infection of CEM-SS cells, time of addition.
The test system of series [3] is HIV-1RF. The experiment in a line: Pre-exposure assay: CEM-SS cells treated before HIV-1RF infection, cell viability. The series is classed as cell-based.
The subject of another series is HIV-1 virions. Kind of series: Infectivity of HIV-1 virions from treated cells on naive CEM-SS cells. The series is classed as cell-based.

With `COCCOCCOCCOCCOCCNC(=O)C[C@H](NC(=O)c1ccc2ccccc2n1)C(=O)N[C@@H](Cc1ccccc1)[C@H](O)CN1C[C@H]2CCCC[C@H]2C[C@H]1C(=O)NC(C)(C)C`, the Papp A→B (in general, how fast a substance crosses the layer from the apical side) in the series on Caco-2 cells came out at 1.66 ×10⁻⁶ cm/s.

For `COCCOCCOCCNC(=O)C[C@H](NC(=O)c1ccc2ccccc2n1)C(=O)N[C@@H](Cc1ccccc1)[C@H](O)CN1C[C@H]2CCCC[C@H]2C[C@H]1C(=O)NC(C)(C)C`, in the series with Caco-2 cells, the Papp A→B was 4.21 ×10⁻⁶ cm/s.

In the series on Caco-2 cells, `COCCOCCOCCOCCOCCOCCOCCNC(=O)C[C@H](NC(=O)c1ccc2ccccc2n1)C(=O)N[C@@H](Cc1ccccc1)[C@H](O)CN1C[C@H]2CCCC[C@H]2C[C@H]1C(=O)NC(C)(C)C` showed a Papp A→B of 0.255 ×10⁻⁶ cm/s. The concentration giving a half-maximal response (EC50) (in general, the concentration giving half of the maximal effect) in the series on HIV-1RF [1] (drug addition 0 h post-infection) worked out at 50 nM; in the series with HIV-1RF [1] (drug addition 24 h post-infection), 50 nM; in the series with HIV-1RF [1] (drug addition 48 h post-infection), 50 nM; with HIV-1RF [1] (drug addition 72 h post-infection) it was 90 nM; in the series on HIV-1RF [3] (exposure 2 h pre-infection), 500 nM; in the series on HIV-1RF [3] (exposure 8 h pre-infection) it was 540 nM. The molecule also had a concentration for a half-maximal effect (EC50) with HIV-1RF [3] (exposure 24 h pre-infection) of 740 nM. Also, the figures for the “time of addition up to which antiviral activity (reduced p24) was seen” value in the series on HIV-1RF [2] (0.1 μM) and in the series with HIV-1RF [2] (1 μM) were “up to 16 hours post-infection” and “up to 24 hours post-infection”, respectively. Further, the “Percent Infectivity of HIV-1 Virions in comparison to virus-alone control” value with HIV-1 virions (0.01 μM, added 8 h post-infection) amounted to 117.0%; with HIV-1 virions (0.01 μM, added 16 h post-infection) it was 177.8%; with HIV-1 virions (0.01 μM, added 24 h post-infection), 100.0%; in the series on HIV-1 virions (0.1 μM, added 8 h post-infection), 0.1%; in the series on HIV-1 virions (0.1 μM, added 16 h post-infection) it was 37.0%; in the series with HIV-1 virions (1 μM, added 8 h post-infection) it was 0.1%. Besides, the “Percent Infectivity of HIV-1 Virions in comparison to virus-alone control” value was 1.4% in the series with HIV-1 virions (1 μM, added 16 h post-infection) and 10.0% in the series with HIV-1 virions (1 μM, added 24 h post-infection). Also, the “virus infectivity reduced to % of virus-alone controls” value worked out at 63% in the series with HIV-1 virions (0.1 μM at 8 hours post-infection) and 99.9% with HIV-1 virions (0.1 μM at 16 hours post-infection). In addition, in the series on HIV-1 virions (1 μM added up to 24 hours post-infection), the “reduction of virion infectivity” value was “at least 90%”.

For the origin of these results see patent US10806794B2, “Protease inhibitors having enhanced features” (priority 2008, dated 2020).
